Anti-infective test results gathered from many reports (values: NIAID ChemDB through PubChem).

Shared fields: target-level tests; organism: HIV-1; target: Reverse transcriptase; endpoint: fold resistance

Fold resistance: result on the changed form divided by that on wild type. An empty or dashed field is not shown. Rows are shuffled and stem from different studies.

smiles	changes	method	result
c1ccc(C2SCc3nc4ccccc4n32)cc1	RT-V179D		1
Cc1ccc2c(c1)n(CCNC(=S)Nc1ccc(Br)cn1)c(=O)c1cccn12	RT-V106A	nucleotide incorporation	4
Cc1c(Cc2c(Cl)cccc2Cl)nc(SCc2ccc(F)cc2)[nH]c1=O	RT-K103N	nucleotide incorporation / radiometric	>25
Nc1ncnc2c1ncn2[C@@H]1O[C@H](COP(=O)(O)OP(=O)(O)OP(=O)(O)O)C[C@@H]1F	RT-K65R	nucleotide incorporation / radiometric	11.15
O=c1c2cccn2c2cc(Cl)c(Cl)cc2n1CCNC(=S)Nc1ccc(Br)cn1	RT-K103N	nucleotide incorporation	15
Cc1c(Cc2c(Cl)cccc2Cl)nc(SCc2ccc3c(c2)OCO3)[nH]c1=O	RT-181I	nucleotide incorporation / radiometric	>800
O=C1c2cccnc2C(=O)N1CCNC(=S)Nc1ccc(Br)cn1	RT-V106A	nucleotide incorporation	5.26
Nc1ncnc2c1ncn2[C@H]1CC[C@@H](COP(=O)(O)OP(=O)(O)OP(=O)(O)O)O1	RT-A62V V75I F77L F116Y Q151M	nucleotide incorporation / radiometric	17.4
Cc1cn([C@H]2C=C[C@@H](COP(=O)(O)OP(=O)(O)OP(=O)(O)O)O2)c(=O)[nH]c1=O	RT-I132A	nucleotide incorporation / radiometric	0.7
COc1ccc(/C=C/NC(=O)Nc2ccc(Cl)cn2)cc1OC	RT-Y188L	nucleotide incorporation	2.86
Cc1c(Cc2c(F)cccc2F)nc(SCc2ccc(C(C)C)cc2)[nH]c1=O	RT-K103N	nucleotide incorporation / radiometric	>133
Nc1ccn([C@H]2C[C@H](O)[C@@H](COP(=O)(O)OP(=O)(O)OP(=O)(O)O)O2)c(=O)n1	RT-T215Y	nucleotide incorporation / radiometric	0.27
Cc1c(Cc2c(F)cccc2F)nc(SCc2ccc([N+](=O)[O-])cc2)[nH]c1=O	RT-K103N	nucleotide incorporation / radiometric	~1
Nc1ncnc2c1ncn2CCOCP(=O)(O)OP(=O)(O)OP(=O)(O)O	RT-L74V	nucleotide incorporation / radiometric	2.05

The last 2 rows once more:

Cc1c(Cc2c(F)cccc2F)nc(SCc2ccc([N+](=O)[O-])cc2)[nH]c1=O ; changes: RT-K103N ; method: nucleotide incorporation / radiometric ; result: ~1
Nc1ncnc2c1ncn2CCOCP(=O)(O)OP(=O)(O)OP(=O)(O)O ; changes: RT-L74V ; method: nucleotide incorporation / radiometric ; result: 2.05